Assay results as given in patent US7374875, “Peptides having affinity for the gp120 viral protein and use thereof” (dated 2008).

Experiments:
[1] = target: recombinant viral envelope protein gp120LAI (HIV-1 strain LAI), P03377; test: competition ELISA, peptide against soluble CD4 on rgp120LAI
[2] = target: recombinant viral envelope protein gp120HXB2 (HIV-1 strain HXB2), P04578; test: competition ELISA, peptide against soluble CD4 on rgp120HXB2

Binder | IC50 [1] [nM] | IC50 [2] [nM]
CNLARCQLRCKSLGLLGKCAGSFCACGP (modifications not checked) [CD4M9] | 400 | 90
VSCTTSKECWSVCQRLHNTSKGGCQGSFCTCGP (modifications not checked) [CD4M0] | 40000 | –
CNLARCQLRCKSLGLLGKCAGSFCACV (modifications not checked) [CD4M9V] | 300 | –
